# In patent US20240218073A1, “IMMUNOMODULATORY ANTI-CD73 ANTIBODIES AND USES THEREOF” (Corvus Pharmaceuticals, Inc., priority 2019, published 2024):
# “And” between values parts separate entries of the source, which are not always exact repeats. Identical values can stand only once.
# Experiments:
# [1] = Phase 1 trial in cancer patients: serum immunoglobulins; format: in vivo, human; conditions: cancer patients (n=10), 21 days post treatment compared to baseline
# Excerpt: Blood was collected from patients treated with CPI-006 for immunoglobulins analysis at pre-treatment or prior to dose administration at the beginning of Cycle 4 (9 weeks), Cycle 7 (18 weeks) and Cycle 10 (27 weeks).
# CPI-006 is being evaluated as an immunotherapy for cancer in an ongoing phase 1 study (NCT03454451). The cancers being evaluated in the study include non-small cell lung cancer, renal cell cancer, colorectal cancer, triple negative breast cancer, cervical cancer, ovarian cancer, pancreatic cancer, endometrial cancer, sarcoma, squamous cell carcinoma of the head and neck, bladder cancer, metastatic castration resistant prostate cancer, and non-Hodgkin lymphoma. […] Memory B cells are essential for both acute and long-term immunity as they have undergone immunoglobulin rearrangement and somatic hypermutation in order to produce high affinity, antigen-specific antibody upon exposure to antigen. […] These new B cell clones were limited to 2-40 clones per patient and appeared with frequencies as high as 1:100 B cells, consistent with a robust clonal expansion following an antigen-specific response (FIG. 15I-15K). The cognate antigens recognized by these new B cell clones are currently under characterization.
# SARS-CoV-2 TS and/or RBD = assay: COVID-19 patients: anti-SARS-CoV-2 antibody ELISA; format: in vivo, human
# [2] = system: recombinant RBD binding to human ACE2; assay: COVID-19 patients: RBD-ACE2 blocking assay of serum; format: in vivo; conditions: 0.3 or 1.0 mg/kg
# [3] = system: memory B cells and memory/effector T cells; assay: COVID-19 patients: immunophenotyping of PBMCs; format: in vivo, human; conditions: baseline vs 14 or 28 days after treatment
# SARS-CoV-2 peptides = assay: COVID-19 patients: antigen specific T cell Peptivator assay; format: in vivo, human; conditions: one patient, 0.3 mg/kg
substance,measurement,setting,value
CPI-006: humanized anti-CD73 IgG1k antibody with 1E9 CDRs (SEQ ID NO:1-6) and N297Q mutation eliminating Fc effector functions,"antigen-specific IgG response against mumps, CMV, rubella, measles, HSV1",[1],unaltered antigen-specific IgG response
same,IgG and IgM titers,"SARS-CoV-2 TS and/or RBD; […], extending 28 days after administration","> 100,000"
same,antibody levels compared to convalescent sera,SARS-CoV-2 TS and/or RBD; convalescent sera collected at 4-6 weeks POS,reached higher titers compared to convalescent sera
same,course of IgG and IgM levels to viral TS or RBD and neutralization antibodies,SARS-CoV-2 TS and/or RBD; out to 28 days post treatment,Continually increasing
same,evaluable patients with rapidly increased IgG and IgM antibody titers against SARS-CoV-2 TS and/or RBD,"SARS-CoV-2 TS and/or RBD; within 7 days of a single infusion, 0.3 or 1.0 mg/kg",8/8
same,neutralizing antibody levels (block of recombinant RBD binding to human ACE2),[2],corresponding increase in neutralizing antibody levels
same,evaluated patients with increased frequency of memory B cells,[3]; 0.3 mg/kg,two of two
same,evaluated patients with increased frequency of memory/effector CD4^POS and CD8^POS T cells,[3],three out of three
same,"Th1 cytokine production of PBMCs stimulated with SARS-CoV-2 M, N or S peptides",SARS-CoV-2 peptides,produced Th1 cytokines such as IFNg and IL-2
same,median time to discharge after hospitalization,"SARS-CoV-2; COVID-19 patients, 0.3 and 1.0 mg/kg cohorts",4 days
same,infusion related reactions and treatment related adverse events,"SARS-CoV-2; COVID-19 patients, single iv dose 0.3 or 1.0 mg/kg",No infusion related reactions or other treatment related adverse events have been observed
same,clinical recovery,"SARS-CoV-2; COVID-19 patients, single iv dose 0.3 or 1.0 mg/kg, standard care allowed",All patients recovered with improvement of inflammatory markers and symptoms
same,Day Discharged,"SARS-CoV-2; individual COVID-19 patient, CPI-006 dose 0.3 mg/kg, 0.3 mg/kg",4 (3×) and 5 and 6
